Pooled drug test results. Numbers come from NIAID ChemDB, via PubChem.

All rows: whole-cell or culture tests; agent: Measles virus; measure: EC50

An empty or dashed field is not shown.

structure	strain or isolate	cell line	method	value
CCCc1cc(=O)oc2c3c(c4c(c12)OC(C)(C)[C@H](O)[C@@H]4O)O[C@H](C)[C@@H](C)[C@@H]3O	MO2	CV-1	cytopathic effect	50 µg/mL
CSc1nsc(-c2cccc(Cl)c2)c1C#N	Edmonston	HEP-2	plaque count	>10 µM
CC(C)CS[C@H]1C[C@@H](n2cnc3c(N)ncnc32)[C@H](O)[C@@H]1O	DAVIS	HEL	cytopathic effect	>100 µg/mL
CS[C@@H]1C=C[C@H](n2cnc3c(N)ncnc32)C1	-	CV-1	neutral red	>100 µg/mL
CSc1nsc(C2CCCCC2)c1C#N	Edmonston	HEP-2	plaque count	>50 µM
CCCc1cc(=O)oc2cc(OS(=O)(=O)c3ccc(C)cc3)cc(O)c12	Chicago-1	CV-1	cytopathic effect	1 µg/mL
Nc1ncnc2c1ncn2[C@@H]1CC[C@@H](O)[C@H]1O	TN1994	CV-1	neutral red	0.1 µg/mL
CSc1nsc(-c2ccccn2)c1C#N	Edmonston	HEP-2	plaque count	>50 µM
CCNc1nc(=O)c2ncn([C@@H]3O[C@H](CO)[C@@H](O)[C@H]3O)c2c(=O)[nH]1	-	CV-1	cytopathic effect	2 µM
CSc1nsc(-c2ccc(Cl)cc2)c1C#N	Edmonston	HEP-2	plaque count	>5 µM
CCCc1cc(=O)oc2cc(OS(=O)(=O)c3ccc(C)cc3)cc(OS(=O)(=O)c3ccc(C)cc3)c12	Chicago	CV-1	cytopathic effect	1 µg/mL
CS[C@H]1C[C@@H](n2cnc3cc4cncnc4cc32)[C@H](O)[C@@H]1O	-	CV-1	cytopathic effect	100 µg/mL
CNc1nc(=O)c2ncn([C@@H]3O[C@H](CO)[C@@H](O)[C@H]3O)c2c(=O)[nH]1	-	CV-1	cytopathic effect	>100 µM
Nc1ncnc2c1ncn2[C@@H]1C=C[C@@H](O)[C@H]1O	CC	CV-1	cytopathic effect	0.05 µg/mL
CSc1nsc(-c2cc[n+](C)cc2)c1C#N	Edmonston	HEP-2	plaque count	>1000 µM

A second listing of 2 rows from above:

{"structure": "CCCc1cc(=O)oc2cc(OS(=O)(=O)c3ccc(C)cc3)cc(OS(=O)(=O)c3ccc(C)cc3)c12", "strain or isolate": "Chicago", "cell line": "CV-1", "method": "cytopathic effect", "value": "1 µg/mL"}
{"structure": "CNc1nc(=O)c2ncn([C@@H]3O[C@H](CO)[C@@H](O)[C@H]3O)c2c(=O)[nH]1", "cell line": "CV-1", "method": "cytopathic effect", "value": ">100 µM"}

Lines come from different laboratories, so protocols vary. ECn is the concentration giving n% inhibition of infection, replication or growth.